IC50 data for five compounds are collected here from paper PMC6318274, “Lattice engineering enables definition of molecular features allowing for potent small-molecule inhibition of HIV-1 entry” (Nature Communications, 2019).

The structures appear in SMILES notation. pIC50: −log10 of the molar value. Where only a bound is given, the exact number is not on record here.

One assay relates to HIV-1 Env-pseudoviruses (30-strain panel). Briefly: Neutralization assay, cross-clade 30-strain panel (Env-pseudoviruses, TZM-bl target cells). Type of assay: cell-based. The conditions noted are these: Human immunodeficiency virus 1, TZM-bl, A03349M1.vrc4a (Clade D). As for the experimental part: Neutralization was measured using single-round-of-infection HIV-1 Env-pseudoviruses and TZM-bl target cells (ARP Cat No. #8129)[44],[45]. Compounds were prepared at 400 μM with 4% DMSO (dimethyl sulfoxide) in PBS (phosphate-buffered saline) and diluted 20 times as the starting concentration for serial dilution in the neutralization assays. […] After incubation at 37 °C for 2 days, infection of target cells was measured by luciferase activity. Neutralization curves were fit by nonlinear regression using a five-parameter hill slope equation[45].
The term pIC50 denotes the negative decadic logarithm of the IC50, by convention in mol/L. For `O=C(C(=O)N1CCN(C(=O)c2ccccc2)CC1)c1c[nH]c2c(F)ccc(Br)c12` [BMS-386150], the pIC50 is less than 4.70.
On the same count and under the same terms, the result for `COc1cnc(-n2cnc(C)n2)c2[nH]cc(C(=O)C(=O)N3CCN(C(=O)c4ccccc4)CC3)c12` [BMS-626529] reads 8.30; that for `COc1cnc(-c2csc(CN(C)CCCN(C)C)n2)c2[nH]cc(C(=O)C(=O)N3CCC(=C(C#N)c4ccccc4)CC3)c12` [BMS-814508], 8.10.
Take `COc1cnc(-c2csc(C(=O)NCCO)n2)c2[nH]cc(C(=O)C(=O)N3CCC(=C(C#N)c4ccccc4)CC3)c12` [BMS-818251]: the pIC50 was more than 9.52.
Still for that read-out and setting: the result for `O=C(c1ccsc1)N1CCN(C(=O)C2(c3cccc(Cl)c3)CC2)CC1` [Compound 484, reference compound] reads less than 4.70.

A further assay has as its system HIV-1 Env-pseudoviruses (208-strain panel).
Test: not given
To be noted: A03349M1.vrc4a, clade D; cited from earlier work.
Turning to `COc1cnc(-n2cnc(C)n2)c2[nH]cc(C(=O)C(=O)N3CCN(C(=O)c4ccccc4)CC3)c12` [BMS-626529], the pIC50 is 8.40.
